Measured values: PMC10241523 (The Journal of Venomous Animals and Toxins Including …, 2023)
This is a selection: effects in other tests are not listed, and their absence says nothing.

System: human NaV1.4 (hNaV1.4)
Test: Whole-cell patch clamp, hNaV1.4 in HEK293 cells
Conditions: 10 μM, -10 mV from holding -120 mV, positive control 1 μM TTX

## CC[C@H](C)[C@H](NC(=O)[C@@H]1CSSC[C@@H]2NC(=O)[C@H](Cc3ccc(O)cc3)NC(=O)[C@H]([C@@H](C)CC)NC(=O)[C@H](C(C)C)NC(=O)CNC(=O)[C@H](CC(C)C)NC(=O)[C@H](CC(C)C)NC(=O)[C@H](CO)NC(=O)[C@H](C)NC(=O)[C@@H]3CCCN3C(=O)[C@@H]3CSSC[C@H](NC(=O)[C@H]([C@@H](C)CC)NC(=O)[C@H](CC(C)C)NC(=O)CNC(=O)[C@H](CCC(=O)O)NC(=O)[C@H](CSSC[C@H](NC(=O)[C@@H](N)CC(=O)O)C(=O)N[C@@H](Cc4c[nH]cn4)C(=O)N[C@@H](CCC(=O)O)C(=O)N[C@@H](CCCNC(=N)N)C(=O)N[C@@H](Cc4c[nH]c5ccccc45)C(=O)N[C@@H](CC(=O)O)C(=O)N[C@@H](Cc4c[nH]c5ccccc45)C(=O)N3)NC2=O)C(=O)N[C@@H](Cc2ccccc2)C(=O)N[C@@H]([C@@H](C)CC)C(=O)N[C@@H](C)C(=O)N[C@@H](Cc2ccccc2)C(=O)N1)C(=O)O [Tx6.7]
  effects on hNaV1.4 currents: no obvious effects
